Measurements from publication PMC4364341, “NBD delivery improves the disease phenotype of the golden retriever model of Duchenne muscular dystrophy” (Skeletal Muscle, 2014).

Test system: wild type dogs
Assay: Tibiotarsal joint (TTJ) tetanic force/torque, wild type dogs
Type: in vivo, dog
Conditions: n = 3
[1] = NBD group, age 2 months (start of treatment)
[2] = age 6 months, NBD 10 mg/kg IV 3x weekly for 4 months

TALDWSWLQTE [NBD, NBD peptide (…) fused to an Antennapedia protein transduction domain]
Absolute Tetanic Extension Force [1]: 13.46 ± 3.26 N
Absolute Tetanic Extension Torque [1]: 1.20 ± 0.41 Nm
Absolute Tetanic Flexion Force [1]: 4.52 ± 1.82 N
Absolute Tetanic Flexion Torque [1]: 0.42 ± 0.24 Nm
Body-mass Corrected Tetanic Extension Force [1]: 2.88 ± 1.10 N/kg
Body-mass Corrected Tetanic Extension Torque [1]: 0.25 ± 0.08 Nm/kg
Body-mass Corrected Tetanic Flexion Force [1]: 0.90 ± 0.04^2 N/kg
Body-mass Corrected Tetanic Flexion Torque [1]: 0.08 ± 0.02 Nm/kg
Absolute Tetanic Extension Force [2]: 42.17 ± 7.46^1 N
Absolute Tetanic Extension Torque [2]: 6.02 ± 1.38^1 Nm
Absolute Tetanic Flexion Force [2]: 25.75 ± 2.18^1 N
Absolute Tetanic Flexion Torque [2]: 3.65 ± 0.43^1 Nm
Body-mass Corrected Tetanic Extension Force [2]: 2.00 ± 0.22 N/kg
Body-mass Corrected Tetanic Extension Torque [2]: 0.28 ± 0.04 Nm/kg
Body-mass Corrected Tetanic Flexion Force [2]: 1.24 ± 0.19 N/kg
Body-mass Corrected Tetanic Flexion Torque [2]: 0.17 ± 0.02 Nm/kg
